Measured values from several laboratories, pooled; numbers as filed in NIAID ChemDB.

All rows: growth or infection tests; organism: HIV-1

An empty or dashed field is not shown. ECn is the concentration giving n% inhibition of infection, replication or growth. Lines come from different laboratories, so protocols vary.

compound	strain or isolate	endpoint	changes	cell line	conditions	method	value
O=S(=O)([O-])OC[C@@H]1C[C@H](O)[C@@H](OS(=O)(=O)[O-])[C@H](O[C@H]2[C@H](O)[C@@H](O)[C@H](O[C@@H]3OC[C@@H](O[C@H]4[C@@H](OS(=O)(=O)[O-])[C@@H](OS(=O)(=O)[O-])[C@H](O)O[C@@H]4CO)[C@H](O)[C@H]3O)O[C@@H]2CO)O1	Clinical isolate	EC50		PBMC	clinical isolate, multidrug-resistant	p24 / ELISA	1.61 µg/mL
Cc1cc(S(N)(=O)=O)ccc1NC(=O)COc1ccc(Cl)cc1C(=O)c1cc(F)cc(F)c1	HXB2	EC50	RT-V106I	HeLa + HELA CD4+		β-galactosidase	<0.01 µM
CN(C)c1ccc2c(COc3ccc(Cl)c(Oc4cc(Cl)cc(C#N)c4)c3)[nH]nc2n1		EC50		MT-4		p24	<20 µM
CC(C)[C@H](NC(=O)[C@H](Cc1ccccc1)C[C@H](O)[C@H](Cc1ccccc1)NC(=O)OC(C)(C)C)C(=O)NCCN(C)C	MN	EC90		MT-2		RT activity	0.3 µM
Cc1cc(OCC(=O)Nc2ccc(S(N)(=O)=O)cc2Cl)cc(Oc2cc(Cl)cc(C#N)c2)c1		EC50		MT-4		p24	<20 µM
Cc1cc(C#N)cc(C(=O)c2cc(Cl)ccc2OCC(=O)Nc2ccc(S(N)(=O)=O)cc2C)c1	HXB2 (RT-K103N Y181C) Recombinant	EC50	RT-K103N Y181C	HeLa + HELA CD4+		β-galactosidase	<0.01 µM
COC(=O)N[C@H](C(=O)N[C@@H](Cc1ccccc1)C[C@H](O)[C@H](Cc1ccc(-c2cncnc2)cc1)NC[C@@H](NC(=O)OC)C(C)(C)C)C(C)(C)C	pNL4-3	EC50		MT-4		MTT	2 nM
Cc1cc2[nH]cnc2cc1NC(=O)COc1ccc(Cl)cc1C(=O)c1cc(F)cc(C(F)(F)F)c1	HXB2	EC50	RT-Y188C	HeLa + HELA CD4+		β-galactosidase	<0.01 µM
COCCOCCOCCOCCOCCOCCOCCOCCOCCOCCOCCOCCOCCOCCOCCOCCOCCOCCOCCOCCOCCOCCOCCOCCOCCOCCOCCOCCOCCOCCOCCOCCOCCOCCOCCOCCOCCOCCOCCOCCOCCOCCOCCOCCOC(=O)CCC(=O)O[C@@H]1Cc2ccccc2[C@@H]1NC(=O)[C@H](Cc1ccccc1)C[C@H](O)CN1CCN(Cc2cccnc2)C[C@H]1C(=O)NC(C)(C)C	IIIB	EC50		MT-4		cytopathic effect / MTT	0.73 µM
N#Cc1cc(Cl)cc(Oc2cc(Cl)cc(OCc3nc4ccccc4s3)c2)c1		EC50		MT-4		p24	<20 µM
Cc1cc(S(N)(=O)=O)ccc1NC(=O)COc1ccc(Cl)cc1C(=O)c1cc(F)cc(C#N)c1	HXB2	EC50	RT-K103N P225H	HeLa + HELA CD4+		β-galactosidase	<0.01 µM
Cc1cc(S(=O)(=O)Nc2nnc3cc(C(F)(F)F)cc(C)n23)c(S)cc1Cl	RF	EC50		CEM		cytopathic effect / XTT	39.1 µM
C=CS(=O)(=O)N1CCCC(NS(=O)(=O)c2c(C(N)=O)[nH]c3ccc(Br)cc23)C1	IIIB	EC50	Y181C	MT-4		MTT	5.32 µM
CCOC(=O)c1nnsc1Nc1ccccc1Nc1snnc1C(=O)OCC	NL4.3/DS5000R	EC50		C8166		p24	10 µM
COC(=O)N[C@H](C(=O)N[C@@H](Cc1ccccc1)C[C@H](O)[C@H](Cc1ccc(-c2ccncc2)cc1)NC[C@@H](NC(=O)OC)C(C)(C)C)C(C)(C)C		EC50		MT-4	50% human serum	MTT	34 nM
COCCNC(=O)[C@@H](NC(=O)[C@H](Cc1ccc(O)cc1)C[C@H](O)[C@H](Cc1ccccc1)NC(=O)OC(C)(C)C)C(C)C	MN	EC90		MT-2		RT activity	0.3 µM
Cc1ccc(C)n1-c1cccc(O)c1	IIIB	EC50		MT-2		p24	>400 µM
COC(=O)N[C@H](C(=O)N[C@@H](Cc1ccccc1)C[C@H](O)[C@H](Cc1ccc(-c2ccc(OC)cc2)cc1)NC[C@@H](NC(=O)OC)C(C)(C)C)C(C)(C)C	pNL4-3	EC50		MT-4	50% human serum	MTT	3 nM
CNc1ccc2c(COc3ccc(Cl)c(Oc4cc(Cl)cc(C#N)c4)c3)[nH]nc2n1		EC50		MT-4		p24	<20 µM
COC(=O)N[C@H](C(=O)N[C@@H](Cc1ccccc1)C[C@H](O)[C@H](Cc1ccc(-c2ccc(F)nc2)cc1)NC[C@@H](NC(=O)OC)C(C)(C)C)C(C)(C)C	pNL4-3	EC50		MT-4		MTT	3 nM
Cc1cc(-c2ccc(C#N)cc2)cc(C)c1Oc1ccnc(S(=O)(=O)C(C)C(=O)Nc2ccc(Cl)cc2)n1	RES056	EC50		MT-4		MTT	3.294 µM
Nc1nc(Cl)cc(OC[C@H]2O[C@H](COCc3ccccc3)[C@@H](OCc3ccccc3)[C@H]2OCc2ccccc2)n1	IIIB	EC50		CEM		syncytia	>250 µM
Cc1cc(OCCN(C)C)ccc1NC(=O)COc1ccc(Cl)c(Oc2cc(Cl)cc(C#N)c2)c1		EC95		MT-4		p24	<20 µM
Nc1ccn(C2CC(CO)(CO)C2)c(=O)n1	LAV	EC50		CEM		cytopathic effect	>3 µg/mL
Cc1cc(-c2ccc(C#N)cc2)cc(C)c1Oc1ccnc(S(=O)(=O)CC(=O)Nc2ccc(Br)cc2)n1	IIIB	EC50		MT-4		MTT	0.007 µM
Nc1nccc(OC[C@H]2CC[C@@H](CO)O2)n1	IIIB	EC50		CEM		syncytia	>250 µM
Cc1cc(S(=O)(=O)Nc2nnc3ccccn23)c(S)cc1Cl	RF	EC50		CEM		cytopathic effect / XTT	133 µM
COc1ccccc1C[C@H](C[C@H](O)[C@H](Cc1ccccc1)NC(=O)OC(C)(C)C)C(=O)N[C@H](C(=O)NCCN(C)C)C(C)C	MN	EC90		MT-2		RT activity	3 µM
Nc1cc(OC[C@H]2CC[C@@H](COCc3ccccc3)O2)nc(N)n1	IIIB	EC50		CEM		syncytia	>250 µM
CS(=O)(=O)c1ccc(NC(=O)COc2ccc(Cl)c(Oc3cc(Cl)cc(C#N)c3)c2)c(Cl)c1		EC95		MT-4		p24	<20 µM
COCCOCCOCCOCCOCCOCCOCCOCCOCCOCCOCCOCCOCCOCCOCCOCCOCCOCCOCCOCCOCCOCCOCCOCCOCCOCCOCCOCCOCCOCCOCCOCCOCCOCCOCCOCCOCCOCCOCCOCCOCCOCCOCCOCCOC(=O)CCC(=O)O[C@H](CN1C[C@H]2CCCC[C@H]2C[C@H]1C(=O)NC(C)(C)C)[C@H](Cc1ccccc1)NC(=O)[C@H](CC(N)=O)NC(=O)c1ccc2ccccc2n1	IIIB	EC50		MT-4		cytopathic effect / MTT	0.032 µM
Cc1cc(C#N)cc(C(=O)c2cc(Cl)ccc2OCC(=O)Nc2ccc(OCCCN3CC=CC3)cc2C)c1	HXB2	EC50	RT-P225H	HeLa + HELA CD4+		β-galactosidase	<0.01 µM
Cc1cc(/C=C/C#N)cc(C)c1Oc1ccnc(S(=O)(=O)CC(=O)Nc2ccc(Cl)cc2)n1	IIIB	EC50	L100I	MT-4		MTT	0.009 µM
CN[C@@H]1[C@H](O[C@@H]2OC[C@@H](O)[C@H](O)[C@H]2O)[C@@H](O)[C@H](O[C@H]2c3cc(C)c(C(=O)N[C@H](C)C(=O)O)c(O)c3-c3c(cc4c(c3O)C(=O)c3cc(OC)cc(O)c3C4=O)[C@@H]2O)O[C@@H]1C	IIIB	EC50		PBMC		p24 / ELISA	3.3 µM
COC(=O)N[C@H](C(=O)N[C@@H](Cc1ccccc1)C[C@H](O)[C@H](Cc1ccc(-c2ccnc(F)c2)cc1)NC[C@@H](NC(=O)OC)C(C)(C)C)C(C)(C)C	pNL4-3	EC50		MT-4	50% human serum	MTT	7 nM
COCCNC(=O)[C@@H](NC(=O)[C@H](Cc1ccc2c(c1)OCO2)C[C@H](O)[C@H](Cc1ccccc1)NC(=O)OC(C)(C)C)C(C)C	MN	EC90		MT-2		RT activity	0.03 µM
Nc1nc(OC[C@H]2CC[C@@H](COCc3ccccc3)O2)c2[nH]cnc2n1	IIIB	EC50		CEM		syncytia	>50 µM
Cc1cc(-c2ccc(C#N)cc2)cc(C)c1Oc1ccnc(S(=O)(=O)CC(=O)Nc2ccc(F)cc2)n1	IIIB	EC50	F227L V106A	MT-4		MTT	4.102 µM
Nc1ncnc2c1ncn2[C@@H]1O[C@H](CO)[C@@H](O)[C@H]1CO		EC50		MT-4		ATP	>53 µM
CC1(C)Oc2ccc3ccc(=O)oc3c2[C@@H](OC(=O)C23CCC(C)(C(=O)O2)C3(C)C)[C@H]1OC(=O)C12CCC(C)(C(=O)O1)C2(C)C	PRMDR	EC50	PR-M46I L63P V82T I84V	MT-4		p24	0.09 µM
Nc1ccn([C@@H]2CS[C@H](CO)O2)c(=O)n1	IIIB	EC50	E138K	MT-4		MTT	2.9 µM
C=C1C[C@@]23CC[C@@H]4C(C)(C)[C@H](O)C(=O)C[C@@]4(C)[C@@H]2C[C@@H]1CC3=O	RF	EC50		CEM + CEM-SS		cytopathic effect / XTT	6 µg/mL
COc1ccccc1C[C@H](C[C@H](O)[C@H](Cc1ccccc1)NC(=O)OC(C)(C)C)C(=O)N[C@H](C(=O)N[C@@H](Cc1ccccc1)C(=O)N1CCOCC1)C(C)C	MN	EC50		MT-2		RT activity	<0.1 µM
Nc1ncnc2c1ncn2C1OC(COP(=O)(O)OC2C(O)C(COP(=O)(O)OC3C(O)C(CO)OC3n3cnc4c(N)ncnc43)OC2n2cnc3c(N)ncnc32)C(F)C1N		EC50		SupT1 + Sup-T1		syncytia	<300 µM
COc1cc(OC[C@H]2CC[C@@H](COCc3ccccc3)O2)nc(N)n1	IIIB	EC50		CEM		syncytia	>10 µM
CCOC(=O)/C=C/c1ccc(OC(=O)CCC(=O)Oc2c(C)c(C)c3c(c2C)CC[C@@](C)(CCC[C@H](C)CCC[C@H](C)CCCC(C)C)O3)cc1		EC50		U1/HIV-1 (TNF-alpha stimulated) + U1			~10 µM
COc1ccc(C[C@H](C[C@H](O)[C@H](Cc2ccccc2)NC(=O)OC(C)(C)C)C(=O)N[C@H](C(=O)NCCN(C)C)C(C)C)cc1OC	MN	EC50		MT-2		RT activity	<1 µM
CSCSc1nc(Cc2c(F)cccc2F)c(C)c(=O)[nH]1	IIIB	EC50	RT-Y181C	MT-4		cytopathic effect / MTT	20 µM
COC(=O)N[C@H](C(=O)N[C@@H](Cc1ccccc1)C[C@H](O)[C@H](Cc1ccc(-c2cccnc2)cc1)NC[C@@H](NC(=O)OC)C(C)(C)C)C(C)(C)C	pNL4-3	EC50		MT-4	50% human serum	MTT	35 nM
O=C(c1ccccc1)C(F)(F)c1nc2ccccc2o1	LAI	EC50		CEM + CEM-SS		RT activity	>100 µM
Cc1cc2cn[nH]c2cc1NC(=O)COc1ccc(Cl)cc1C(=O)c1cccc(C#N)c1	HXB2	EC50	RT-K103N	HeLa + HELA CD4+		β-galactosidase	<0.01 µM
Cc1ccnc2c1NC(=O)c1cccnc1N2C1CC1	IIIB	EC50	Y181C	MT-4		MTT	10 µM
CC(C)(C)NC(=O)[C@@H]1C[C@@H]2CCCC[C@@H]2CN1C[C@@H](OC(=O)COc1ccc(CC(NC(=O)OC(C)(C)C)C(=O)OC(C)(C)C)cc1)[C@H](Cc1ccccc1)NC(=O)[C@H](CC(N)=O)NC(=O)c1ccc2ccccc2n1	LAI	EC50		CEM + CEM-SS		cytopathic effect / MTT	0.01 µM
Cc1cc(S(N)(=O)=O)ccc1NC(=O)COc1ccc(Cl)cc1C(=O)c1cc(Cl)cc(C#N)c1	HXB2	EC50	RT-V106A Y181C	HeLa + HELA CD4+		β-galactosidase	<0.01 µM
N#Cc1cc(Cl)cc(Oc2cc(OCc3[nH]nc4nc(N)ccc34)cc(F)c2Cl)c1		EC95		MT-4		p24	<20 µM
O=C(OC(c1ccccc1)C(F)(F)c1nc2ccccc2o1)c1cccc(C(F)(F)F)c1	LAI	EC50		CEM + CEM-SS		RT activity	>100 µM
CC(C)C(NC(=O)OC(C)(C)C)C(=O)O[C@H](CN1C[C@H]2CCCC[C@H]2C[C@H]1C(=O)NC(C)(C)C)[C@H](Cc1ccccc1)NC(=O)[C@H](CC(N)=O)NC(=O)c1ccc2ccccc2n1	LAI	EC50		CEM + CEM-SS		cytopathic effect / MTT	0.084 µM
Nc1nc(=O)n([C@@H]2O[C@H](CO)C=C2F)cc1F	RT-M184V	EC50		PBMC		RT activity	<34.7 µM
N#Cc1cccc(Oc2cc(Cl)cc(OCC(=O)Nc3ccc(S(N)(=O)=O)cc3Cl)c2)c1		EC50		MT-4		p24	<20 µM
Cc1cc(S(N)(=O)=O)ccc1NC(=O)COc1ccc(Cl)cc1C(=O)c1cc(F)cc(C(F)(F)F)c1	HXB2	EC50	RT-K103N	HeLa + HELA CD4+		β-galactosidase	<0.01 µM
Fc1ccc(CC(F)(F)c2nc3ccccc3o2)cc1	LAI	EC50		CEM + CEM-SS		RT activity	>100 µM
CNC(=O)c1cccc(-c2ccc(C[C@H](NC[C@@H](NC(=O)OC)C(C)(C)C)[C@@H](O)C[C@H](Cc3ccccc3)NC(=O)[C@@H](NC(=O)OC)C(C)(C)C)cc2)c1	pNL4-3	EC50		MT-4	50% human serum	MTT	842 nM
CC(C)C(NC(=O)OC(C)(C)C)C(=O)O[C@@H](C[C@@H](Cc1ccccc1)C(=O)N[C@H]1c2ccccc2C[C@H]1OC(=O)C(NC(=O)OC(C)(C)C)C(C)C)CN1CCN(Cc2cccnc2)C[C@H]1C(=O)NC(C)(C)C	IIIB	EC50		MT-4		cytopathic effect / MTT	>10 µM
Cc1cc(S(N)(=O)=O)ccc1NC(=O)COc1ccc(Cl)cc1C(=O)c1cccc(C#N)c1	HXB2	EC50	RT-V106I	HeLa + HELA CD4+		β-galactosidase	<0.01 µM